Laboratory results taken from patent publication US12708649B2, “Compositions and methods for improving skin health and for the treatment and prevention of diseases, disorders and conditions associated with fungi and other pathogenic microbes” (priority 2020, dated 2026).

Tested on: Alcaligenes faecalis DB05646 / Malassezia furfur cultures
Assay: Metabolite profile by LC-MS: DB05646 single culture and co-culture with M. furfur
[1] = DB05646 single culture, Media 22, 48 hours

In the case of `Cc1[nH]c(=O)[nH]c(=O)c1CO` [pentoxyl], the “Fold of change Coculture vs DB05646” value (DB05646-M. furfur co-culture) is reported as 0.5 fold, the “Fold of change Coculture vs M.furfur” value (DB05646-M. furfur co-culture) is reported as 200.0 fold and the “Fold of change Coculture vs Media” value (DB05646-M. furfur co-culture) is reported as 204.8 fold. For the same molecule, the “Fold of change DB05646 vs Media” value [1] was 444.9 fold and the “Fold of change M.furfur vs Media” value (M. furfur single culture) was 1.0 fold.
For `OC1CC2CCC(C1)N2` (stereo not shown) [8-Azabicyclo[3.2.1]octan-3-ol], the “Fold of change Coculture vs DB05646” value was 0.7 fold, the “Fold of change Coculture vs M.furfur” value was 1.0 fold and the “Fold of change Coculture vs Media” value was 395.0 fold. For the same molecule, the “Fold of change DB05646 vs Media” value was 551.2 fold and the “Fold of change M.furfur vs Media” value was 399.0 fold.
For `Nc1cc[nH]c(=O)n1` [Cytosine], the “Fold of change Coculture vs DB05646” value (DB05646-M. furfur co-culture) was 0.3 fold, the “Fold of change Coculture vs M.furfur” value (DB05646-M. furfur co-culture) was 5.5 fold and the “Fold of change Coculture vs Media” value (DB05646-M. furfur co-culture) was 0.9 fold. The “Fold of change DB05646 vs Media” value [1] was 2.7 fold and the “Fold of change M.furfur vs Media” value (M. furfur single culture) was 0.2 fold.
`CCCCC#N` [Valeronitrile] was tested, and the “Fold of change Coculture vs DB05646” value was 1.1 fold, the “Fold of change Coculture vs M.furfur” value was 44.8 fold and the “Fold of change Coculture vs Media” value was 62.8 fold. For the same molecule, the “Fold of change DB05646 vs Media” value was 57.5 fold and the “Fold of change M.furfur vs Media” value was 1.4 fold.
For `CCOC(C)OC(C)C(=O)O` (stereo not shown) [2-(1-Ethoxyethoxy)propanoic acid], the “Fold of change Coculture vs DB05646” value (DB05646-M. furfur co-culture) was 0.9 fold, the “Fold of change Coculture vs M.furfur” value (DB05646-M. furfur co-culture) was 22.9 fold and the “Fold of change Coculture vs Media” value (DB05646-M. furfur co-culture) was 416.4 fold. The “Fold of change DB05646 vs Media” value [1] was 462.0 fold and the “Fold of change M.furfur vs Media” value (M. furfur single culture) was 18.2 fold.
In the case of `O=Cc1ccco1` [Furfural], the “Fold of change Coculture vs DB05646” value (DB05646-M. furfur co-culture) is reported as 0.5 fold, the “Fold of change Coculture vs M.furfur” value (DB05646-M. furfur co-culture) is reported as 7.1 fold and the “Fold of change Coculture vs Media” value (DB05646-M. furfur co-culture) is reported as 2.3 fold. The “Fold of change DB05646 vs Media” value [1] was 4.7 fold and the “Fold of change M.furfur vs Media” value (M. furfur single culture) was 0.3 fold.
`C1=NCCC1` [1-pyrroline] was tested, and the “Fold of change Coculture vs DB05646” value (DB05646-M. furfur co-culture) was 0.6 fold, the “Fold of change Coculture vs M.furfur” value (DB05646-M. furfur co-culture) was 1.1 fold and the “Fold of change Coculture vs Media” value (DB05646-M. furfur co-culture) was 78.9 fold. The “Fold of change DB05646 vs Media” value [1] was 129.6 fold and the “Fold of change M.furfur vs Media” value (M. furfur single culture) was 70.1 fold.
`CSCC[C@H](NC(C)=O)C(=O)O` [N-Acetylmethionine] was tested, and the “Fold of change Coculture vs DB05646” value (DB05646-M. furfur co-culture) was 0.9 fold, the “Fold of change Coculture vs M.furfur” value (DB05646-M. furfur co-culture) was 2.8 fold and the “Fold of change Coculture vs Media” value (DB05646-M. furfur co-culture) was 68.4 fold. The “Fold of change DB05646 vs Media” value [1] was 78.1 fold and the “Fold of change M.furfur vs Media” value (M. furfur single culture) was 24.1 fold.
For `CC(C)C[C@H](N)C(=O)N[C@H](C(=O)O)C(C)C` [Leu-Val] (H-Leu-Val-OH), the “Fold of change Coculture vs DB05646” value (DB05646-M. furfur co-culture) was 0.5 fold, the “Fold of change Coculture vs M.furfur” value (DB05646-M. furfur co-culture) was 9.8 fold and the “Fold of change Coculture vs Media” value (DB05646-M. furfur co-culture) was 8.6 fold. For the same molecule, the “Fold of change DB05646 vs Media” value [1] was 16.2 fold and the “Fold of change M.furfur vs Media” value (M. furfur single culture) was 0.9 fold.
For `CN(C)CC#N` [(Dimethylamino)acetonitrile], the “Fold of change Coculture vs DB05646” value was 0.9 fold, the “Fold of change Coculture vs M.furfur” value was 1.4 fold and the “Fold of change Coculture vs Media” value was 63.6 fold. The “Fold of change DB05646 vs Media” value was 72.8 fold and the “Fold of change M.furfur vs Media” value was 44.6 fold.
In the case of `CC(=O)NCCCCNCCCN` [N8-Acetylspermidine], the “Fold of change Coculture vs DB05646” value (DB05646-M. furfur co-culture) is reported as 0.2 fold, the “Fold of change Coculture vs M.furfur” value (DB05646-M. furfur co-culture) is reported as 0.8 fold and the “Fold of change Coculture vs Media” value (DB05646-M. furfur co-culture) is reported as 3.1 fold. For the same molecule, the “Fold of change DB05646 vs Media” value [1] was 16.8 fold and the “Fold of change M.furfur vs Media” value (M. furfur single culture) was 4.0 fold.
For `Cn1cccc1` [1-Methyl-1H-pyrrole], the “Fold of change Coculture vs DB05646” value (DB05646-M. furfur co-culture) was 0.8 fold, the “Fold of change Coculture vs M.furfur” value (DB05646-M. furfur co-culture) was 4.8 fold and the “Fold of change Coculture vs Media” value (DB05646-M. furfur co-culture) was 426.1 fold. The “Fold of change DB05646 vs Media” value [1] was 511.2 fold and the “Fold of change M.furfur vs Media” value (M. furfur single culture) was 88.7 fold.
With `O=C(O)c1ccc(O)o1` [5-Hydroxy-2-furoic acid] the “Fold of change Coculture vs DB05646” value (DB05646-M. furfur co-culture) was 2.2 fold, the “Fold of change Coculture vs M.furfur” value (DB05646-M. furfur co-culture) was 2.6 fold and the “Fold of change Coculture vs Media” value (DB05646-M. furfur co-culture) was 5.1 fold. The “Fold of change DB05646 vs Media” value [1] was 2.3 fold and the “Fold of change M.furfur vs Media” value (M. furfur single culture) was 2.0 fold.
In the case of `O=C(O)C1(O)C[C@@H](O)C(O)[C@H](O)C1` (stereo partly drawn) [(1S,3R,4s)-1,3,4,5-Tetrahydroxycyclohexanecarboxylic acid], the “Fold of change Coculture vs DB05646” value (DB05646-M. furfur co-culture) is reported as 0.9 fold, the “Fold of change Coculture vs M.furfur” value (DB05646-M. furfur co-culture) is reported as 16.3 fold and the “Fold of change Coculture vs Media” value (DB05646-M. furfur co-culture) is reported as 52.5 fold. The “Fold of change DB05646 vs Media” value [1] was 61.3 fold and the “Fold of change M.furfur vs Media” value (M. furfur single culture) was 3.2 fold.
In the case of `O=C(CO)[C@H](O)[C@H](O)COP(=O)(O)O` [Ribulose-5-phosphate], the “Fold of change Coculture vs DB05646” value (DB05646-M. furfur co-culture) is reported as 2.4 fold, the “Fold of change Coculture vs M.furfur” value (DB05646-M. furfur co-culture) is reported as 9.9 fold and the “Fold of change Coculture vs Media” value (DB05646-M. furfur co-culture) is reported as 305.2 fold. The “Fold of change DB05646 vs Media” value [1] was 126.7 fold and the “Fold of change M.furfur vs Media” value (M. furfur single culture) was 30.7 fold.
`C[C@H](O)c1nc(=O)c2ccccc2[nH]1` [2-[(1S)-1-Hydroxyethyl]-4(1H)-quinazolinone] was tested, and the “Fold of change Coculture vs DB05646” value (DB05646-M. furfur co-culture) was 0.8 fold, the “Fold of change Coculture vs M.furfur” value (DB05646-M. furfur co-culture) was 0.9 fold and the “Fold of change Coculture vs Media” value (DB05646-M. furfur co-culture) was 376.8 fold. The “Fold of change DB05646 vs Media” value [1] was 479.8 fold and the “Fold of change M.furfur vs Media” value (M. furfur single culture) was 412.0 fold.
With `NC(=O)NCCCC[C@H](N)C(=O)O` [homocitrulline] the “Fold of change Coculture vs M.furfur” value was “significantly lower”.
For `CC(=O)NCCCNCCCC(=O)O` [4-[(3-Acetamidopropyl)amino]butanoic acid], the “Fold of change Coculture vs DB05646” value (DB05646-M. furfur co-culture) was 3.2 fold, the “Fold of change Coculture vs M.furfur” value (DB05646-M. furfur co-culture) was 6.6 fold and the “Fold of change Coculture vs Media” value (DB05646-M. furfur co-culture) was 2.7 fold. For the same molecule, the “Fold of change DB05646 vs Media” value [1] was 0.8 fold and the “Fold of change M.furfur vs Media” value (M. furfur single culture) was 0.4 fold.
`O=C(O)C1CCCCN1` (stereo not shown) [Pipecolinic acid] was tested, and the “Fold of change Coculture vs DB05646” value (DB05646-M. furfur co-culture) was 1.0 fold, the “Fold of change Coculture vs M.furfur” value (DB05646-M. furfur co-culture) was 101.2 fold and the “Fold of change Coculture vs Media” value (DB05646-M. furfur co-culture) was 228.5 fold. The “Fold of change DB05646 vs Media” value [1] was 230.6 fold and the “Fold of change M.furfur vs Media” value (M. furfur single culture) was 2.3 fold.
In the case of `O=c1ccn([C@@H]2O[C@H](CO)[C@@H](O)[C@H]2O)c(=O)[nH]1` [Uridine], the “Fold of change Coculture vs DB05646” value (DB05646-M. furfur co-culture) is reported as 0.1 fold, the “Fold of change Coculture vs M.furfur” value (DB05646-M. furfur co-culture) is reported as 0.1 fold and the “Fold of change Coculture vs Media” value (DB05646-M. furfur co-culture) is reported as 1.9 fold. For the same molecule, the “Fold of change DB05646 vs Media” value [1] was 32.0 fold and the “Fold of change M.furfur vs Media” value (M. furfur single culture) was 26.1 fold.
With `CCC(C)c1nccnc1OC` (stereo not shown) [2-sec-Butyl-3-methoxypyrazin] the “Fold of change Coculture vs DB05646” value (DB05646-M. furfur co-culture) was 0.2 fold, the “Fold of change Coculture vs M.furfur” value (DB05646-M. furfur co-culture) was 24.2 fold and the “Fold of change Coculture vs Media” value (DB05646-M. furfur co-culture) was 31.4 fold. The “Fold of change DB05646 vs Media” value [1] was 135.2 fold and the “Fold of change M.furfur vs Media” value (M. furfur single culture) was 1.3 fold.
`COC(=O)Cc1c[nH]c2ccccc12` [Methyl indole-3-acetate] was tested, and the “Fold of change Coculture vs DB05646” value (DB05646-M. furfur co-culture) was 0.9 fold, the “Fold of change Coculture vs M.furfur” value (DB05646-M. furfur co-culture) was 7.5 fold and the “Fold of change Coculture vs Media” value (DB05646-M. furfur co-culture) was 9.1 fold. For the same molecule, the “Fold of change DB05646 vs Media” value [1] was 10.3 fold and the “Fold of change M.furfur vs Media” value (M. furfur single culture) was 1.2 fold.

Read-outs that look alike come from different tables or passages of the source. Where a SMILES comes first, the peptide text is derived from it.
